Results taken from patent publication US20170198014A1 (UNIVERSITY WASHINGTON THROUGH ITS CENTER FOR …, published 2017).

B1: Hsc1, monovalent version (designed binder)
chain: GIVNVPNCNTTKYQQLARTAVAIYNYHEQAHLTFVENLNCKEQLGEGDYYYITLAATDDAGKKAIYEAKIGVVESAGWTGVEEFKLV
B2: Hsc1 (SEQ ID NO:135) fused to HAA.1c (SEQ ID NO:227) via the triLong linker (SEQ ID NO: 352), trimer (designed binder)
chain: MEEVVLITVPSEEVARTIAKALVEERLAACVNIVPGLTSIYRWQGEVVEDQELLLLVKTTTHAFPKLKERVKALHPYTVPEIVALPIAQGNQEYLDWLRENAGGGGSGGSGIVNVPNCNTTKYQQLARTAVAIYNYHEQAHLTFVENLNCKEQLGEGDYYYITLAATDDAGKKAIYEAKIGVVESAGWTGVEEFKLV

What was measured:
[1] = molecular target: hemagglutinin H3 (A/Hong Kong/1/1968-H3N2) (influenza A virus A/Hong Kong/1/1968 …, UniProt Q91MA7 27-521); assay: BLI (FIG. 4); monovalent version
[2] = molecular target: hemagglutinin H2 A/Japan/305/1957 (influenza A virus A/Japan/305/1957 (H2), UniProt P03451 16-516); assay: BLI (Octet), biotinylated HA on streptavidin sensors

Binder	Kd [1]	Kd [2]
B1	31.2 nM	
B2		4.8 nM
